Pooled drug test results. Numbers come from NIAID ChemDB, via PubChem.

Common to all: tests in culture; agent: Candida albicans; method: broth dilution; endpoint: EC50

Rows are shuffled and stem from different studies. ECn is the concentration giving n% inhibition of infection, replication or growth. Blank or dashed fields: not listed here.

compound,strain,value
CC(C(=O)O)N1C(=O)CCSC1c1ccccc1,-,75.24 µM
CC(C)CC(O)C(=O)O,ATCC 10231,18000 µg/mL
COc1cc(NC(C)CCCNC(=O)[C@@H](CCCCN)NC(=O)[C@H](N)CCCCN)c2nc(C(C)(C)C)ccc2c1,-,>20 µg/mL
Cc1cc(C[n+]2cccc(C=NO)c2)on1.[Br-],-,>20 µg/mL
COc1cc(NC(C)CCCNC(=O)CC(NC(=O)[C@H](N)CCCN)C(=O)O)c2nc(C(C)(C)C)ccc2c1,-,>20 µg/mL
CCCCCCCCCC(=O)[C@@H](C)C(=O)N[C@@H](CC(C)C)C(=O)N[C@H](C)C(=O)N1CCC[C@H]1C(=O)N[C@H](C(=O)N[C@H]1CSCCNC1=O)C(C)C,Day185,3.4 µM
COc1cc(NC(C)CCCNC(=O)CCC(NC(=O)[C@@H](N)CCCCN)C(=O)O)c2nc(C(C)(C)C)ccc2c1,-,>20 µg/mL
CC(=O)Nc1ccc(C(=O)N/N=C/c2cccc(O)c2)cc1,ATCC 10231,17 µM
CC(C(=O)O)N1C(=O)CSC1c1ccc(Cl)cc1,-,79.61 µM
C[C@H]1[C@H](O)[C@@H](C)/C=C/C=C/C=C/C=C/C=C/C=C/C=C/[C@H](O[C@@H]2O[C@H](C)[C@@H](O)[C@H](N)[C@@H]2O)C[C@@H]2O[C@](O)(C[C@@H](O)C[C@@H](O)CC[C@H](O)[C@@H](O)C[C@@H](O)CC(=O)O[C@H]1C)C[C@H](O)[C@H]2C(=O)O,66506,2 µM
COc1ccccc1C1SCCC(=O)N1C(Cc1ccccc1)C(=O)O,-,78.12 µM
COc1cc(NC(C)CCCNC(=O)CCC(NC(=O)[C@@H](N)CCCN=C(N)N)C(=O)O)c2nc(C(C)(C)C)ccc2c1,-,>20 µg/mL
COc1ccccc1C1SCC(=O)N1C(C)C(=O)O,-,79.61 µM
OC(Cn1cncn1)(Cn1cncn1)c1ccc(F)cc1F,ATCC 10231,1 µM
O=C(O)C(Cc1ccccc1)N1C(=O)CSC1c1ccc(Cl)cc1,-,80.64 µM
COc1cc(NC(C)CCCNC(=O)CC(NC(=O)[C@@H](N)CCCN=C(N)N)C(=O)O)c2nc(C(C)(C)C)ccc2c1,-,>20 µg/mL
O=C(O)CN1C(=O)CSC1c1c(Cl)cccc1Cl,-,83.33 µM
NC(=O)c1cc[n+](Cc2ccc(C[n+]3ccc(/C=N/O)cc3)s2)cc1.[Cl-].[Cl-],-,>20 µg/mL
COc1cc(NC(C)CCCNC(=O)[C@H](CCCN)NC(=O)[C@@H](N)CCCN)c2ncccc2c1,-,>20 µg/mL
O/N=C/c1cc[n+](Cc2cc(C[n+]3ccc(/C=N/O)cc3)on2)cc1.[Br-].[Br-],-,>20 µg/mL
COc1cc(NC(C)CCCNC(=O)[C@H](CCCCN)NC(=O)[C@@H](N)CCCCN)c2ncccc2c1,-,>20 µg/mL
CCCCCCCCCC(=O)[C@H](C)C(=O)N[C@@H](CC(C)C)C(=O)N[C@H](C)C(=O)N1CCC[C@H]1C(=O)N[C@H](C(=O)N[C@H]1CSCCNC1=O)C(C)C,Day185,>200 µM
O/N=C/c1cccc[n+]1Cc1csc2ccccc12.[Cl-],-,>20 µg/mL
CC(C(=O)O)N1C(=O)CSC1c1ccccc1,-,78.12 µM